Assay results taken from PMC5517516.

Test system: CC(=O)N[C@H]1[C@H]([C@H](O)[C@H](O)CO)O[C@](OP(=O)(O)OC[C@H]2O[C@@H](n3ccc(N)nc3=O)[C@H](O)[C@@H]2O)(C(=O)O)C[C@@H]1O
Experiment: purified protein
Conditions: 0.3 mg/mL colominic acid acceptor, 50 mM HEPES pH 7.0, 50 mM KCl, 20 mM MgCl2, 37 °C

Substance	Km	kcat	kcat/Km
MhPST (Δ20MhPST) (Mannheimia haemolytica; K68A/K69A)	600 ± 30 µM	70.3 s⁻¹	117000 M⁻¹ s⁻¹
MhPST (Δ20MhPST) (Mannheimia haemolytica; K293A/K68A/K69A)	260 ± 40 µM	0.14 s⁻¹	515 M⁻¹ s⁻¹
MhPST (Δ20MhPST) (Mannheimia haemolytica; K68A/K69A/R259A)	2080 ± 270 µM	0.12 s⁻¹	56 M⁻¹ s⁻¹
MhPST (Δ20MhPST) (Mannheimia haemolytica; E152A/K68A/K69A)	1080 ± 50 µM	0.39 s⁻¹	359 M⁻¹ s⁻¹
MhPST (Δ20MhPST) (Mannheimia haemolytica; K68A/K69A/Q41A)	960 ± 130 µM	2.23 s⁻¹	2320 M⁻¹ s⁻¹
MhPST (Δ20MhPST) (Mannheimia haemolytica; K68A/K69A/Q44A)	340 ± 30 µM	1.16 s⁻¹	3400 M⁻¹ s⁻¹
MhPST (Δ20MhPST) (Mannheimia haemolytica; H291A/K68A/K69A)	4360 ± 240 µM	1.83 s⁻¹	420 M⁻¹ s⁻¹
